# Experimental data taken from paper PMC2763345 (PLoS Pathogens, 2009).
# Test system: M. tuberculosis clinical isolates
# Assay: MIC against clinical isolates (resazurin reduction method)
# Format: cell-based
row,Compound,activity against multidrug-resistant (MDR) and extensively drug-resistant (XDR) clinical isolates
1,"O=C(NCCOCc1ccccc1)c1cc([N+](=O)[O-])cc([N+](=O)[O-])c1 [Compound 7, N-(2-(benzyloxy)ethyl)-3,5-dinitrobenzamide]",highly active
2,"COc1ccc(OCCNC(=O)c2cc([N+](=O)[O-])cc([N+](=O)[O-])c2)cc1 [Compound 8, N-(2-(4-methoxyphenoxy)ethyl)-3,5-dinitrobenzamide]",highly active
